Measurements from paper PMC11050134, “A Complex-Type N-Glycan-Specific Lectin Isolated from Green Alga Halimeda borneensis Exhibits Potent Anti-Influenza Virus Activity” (International Journal of Molecular Sciences, 2024).

What follows are compounds tested on T1, HBL40 (assay: centrifugal ultrafiltration-HPLC, fluorescence detection). Details: 500 nM lectin (90 µL) + 300 nM PA-oligosaccharide (10 µL), 50 mM Tris-HCl pH 7.0, room temperature, 60 min; labelled compound.
T1 construct: gene HBL40-1; native, purified from alga; about 40 kDa dimer of 20 kDa subunits (non-reducing 40, reducing 20 kDa)
Assay type: binding, Halimeda borneensis
In the case of agalacto-triantennae [compound 8], the “binding activity (%)” value was 56%. `CC(=O)N[C@H]1[C@H](O[C@@H]([C@H](O)[C@H](CNc2ccccn2)NC(C)=O)[C@H](O)CO)O[C@H](CO)[C@@H](O[C@@H]2O[C@H](CO[C@H]3O[C@H](CO)[C@@H](O)[C@H](O)[C@@H]3O[C@@H]3O[C@H](CO)[C@@H](O[C@@H]4O[C@H](CO)[C@H](O)[C@H](O)[C@H]4O)[C@H](O)[C@H]3NC(C)=O)[C@@H](O)[C@H](O[C@H]3O[C@H](CO)[C@@H](O)[C@H](O)[C@@H]3O[C@@H]3O[C@H](CO)[C@@H](O[C@@H]4O[C@H](CO)[C@H](O)[C@H](O)[C@H]4O)[C@H](O)[C@H]3NC(C)=O)[C@@H]2O)[C@@H]1O` [compound 2, asialo-biantennae] was tested, and the “binding activity (%)” value was 100%. In the case of `CC(=O)N[C@H]1[C@H](O[C@@H]([C@H](O)[C@H](CNc2ccccn2)NC(C)=O)[C@H](O)CO)O[C@H](CO)[C@@H](O[C@@H]2O[C@H](CO[C@H]3O[C@H](CO)[C@@H](O)[C@H](O)[C@@H]3O[C@@H]3O[C@H](CO)[C@@H](O)[C@H](O)[C@H]3NC(C)=O)[C@@H](O)[C@H](O[C@H]3O[C@H](CO)[C@@H](O)[C@H](O)[C@@H]3O[C@@H]3O[C@H](CO)[C@@H](O)[C@H](O)[C@H]3NC(C)=O)[C@@H]2O)[C@@H]1O` [compound 4, agalacto-biantennae], the “binding activity (%)” value was 80%. For sialo-biantennae [compound 1], the “binding activity (%)” value was 78%.
